Measured values from several laboratories, pooled; numbers as filed in NIAID ChemDB.

Common to all: whole-cell or culture tests

Percent inhibition refers to the dose given; in toxicity tests it is the harm to the cells. ECn: concentration that inhibits the pathogen or its effect by n%. Blank or dashed fields: not listed here. Lines come from different laboratories, so protocols vary.

SMILES	mutations	method	cell line	read-out	agent	strain or isolate	tested at	conditions	value
Clc1ccc2c(=Nc3ccc(Oc4ccccc4)cc3)ccn(CCCN3CCCCC3)c2c1		luciferase	Huh7	EC50	Plasmodium berghei				>1 µM
C[C@H]1CCCC(C[C@@H]2Cc3cc(O)cc(O)c3C(=O)O2)O1		SYBR Green		EC50	Plasmodium yoelii				0.04 µM
O=C1c2ccccc2NC(c2ccc(Cl)cc2)N1C1CC1		luciferase		EC50	Plasmodium berghei	ANKA			>20 µM
CCN(CC)CCCn1ccc(=Nc2ccc(-c3ccccc3)cc2)c2ccc(Cl)cc21		luciferase	Huh7	EC50	Plasmodium berghei				>1 µM
C[C@H]1Cc2c([nH]c3cc(Cl)c(F)cc23)[C@@]2(N1)C(=O)Nc1ccc(Cl)cc12	KAE609-resistant (T418N/P990R)	SYBR Green / fluorescence		EC50	Plasmodium falciparum	KAE609R-2			0.00547 µM
CCCCN1C(=O)c2ccccc2NC1c1ccc(OC)c(COc2ccc(F)cc2)c1		luciferase		EC50	Plasmodium berghei	ANKA			7.8 µM
CCN(CC)CCCC(C)Nc1ccnc2cc(Cl)ccc12	KAE678-resistant pfatp4 I203M/I263V	SYBR Green / fluorescence		EC50	Plasmodium falciparum	KAE678R-3			0.0124 µM
CC(C)Nc1nc2cc(-c3ccc(Cl)cc3)sc2c(=O)[nH]1.O=C(O)/C=C/C(=O)O		fluorescence		EC50	Plasmodium yoelii				0.06 µM
CCO/C(=N/NC(=O)OCc1ccccc1)C(C)(O)c1ccc(C)cc1		hypoxanthine uptake / radiometric		inhibition	Plasmodium falciparum	3D7	5 µM		19%
CC(C)(C)c1cc(C(=O)Nc2nc(CN)cs2)n(Cc2ccccc2)n1				EC50	Plasmodium berghei	NF54			0.07 µM
CC[C@H]1OC(=O)[C@H](C)[C@@H](OC2C[C@@](C)(OC)[C@@H](O)[C@H](C)O2)[C@H](C)[C@@H](OC2O[C@H](C)C[C@H](N(C)C)[C@H]2O)[C@](C)(OC2C[C@@H](N(C)C)[C@@H](O)[C@H](C)O2)C[C@@H](C)CN(C)[C@H](C)[C@@H](O)[C@]1(C)O		fluorescence	RBC	EC50	Plasmodium falciparum	W2 Mef		120 h	0.21 µM
CCN(CC)CCN1C(=O)c2ccccc2NC1c1ccc(OC)c(COc2ccc(NC(C)=O)cc2)c1		luciferase		EC50	Plasmodium berghei	ANKA			11 µM
C[C@H]1Cc2c([nH]c3cc(F)c(F)cc23)[C@@]2(N1)C(=O)Nc1ccc(Cl)cc12	GNF-Pf4492-resistant I203L/P990R	SYBR Green / fluorescence		EC50	Plasmodium falciparum	GNF-Pf4492R-2			0.00302 µM
CCN(CC)CCN1C(=O)c2ccccc2NC1c1ccc(Cl)cc1		luciferase		EC50	Plasmodium berghei	ANKA			4.1 µM
Cc1ccc(N(C)C(=O)c2c[n+]3c(cn2)CN=C3c2ccc(C(F)(F)F)cc2)nn1		SYBR Green		EC50	Plasmodium yoelii				>10 µM
CCN(CC)CCCC(C)Nc1ccnc2cc(Cl)ccc12				inhibition	Plasmodium falciparum	Dd2	0.031 µg/mL	24 h	10%
CCN(CC)CCN1C(=O)c2ccccc2NC1c1ccc(F)cc1		luciferase		EC50	Plasmodium berghei	ANKA			8 µM
CCO/C(=N/NC(=O)NCc1ccccc1)C(C)(O)c1ccc(Cl)c(Cl)c1		hypoxanthine uptake / radiometric		inhibition	Plasmodium falciparum	3D7	5 µM		19%
CC[C@H]1OC(=O)[C@H](C)[C@@H](OC2C[C@@](C)(OC)[C@@H](O)[C@H](C)O2)[C@H](C)[C@@H](OC2O[C@H](C)C[C@H](N(C)C)[C@H]2O)[C@](C)(O)C[C@@H](C)CN(C)[C@H](C)[C@@H](O)[C@]1(C)O		fluorescence	RBC	EC50	Plasmodium falciparum	W2 Mef		120 h	0.05 µM
NC1=Nc2ccc(Cl)cc2C1(O)c1ccccc1		fluorescence		EC50	Plasmodium spp.	PF 3D7			200 nM
O=C1c2ccccc2NC(c2ccc(Br)cc2)N1c1ccco1		luciferase		EC50	Plasmodium berghei	ANKA			>20 µM
Clc1ccc2c(=Nc3ccc(-c4ccccc4)cc3)ccn(CCCN3CCCCC3)c2c1		luciferase	Huh7	EC50	Plasmodium berghei				>1 µM
CCCCN1C(=O)c2ccccc2NC1c1ccc(Cl)cc1		luciferase		EC50	Plasmodium berghei	ANKA			>20 µM
CCOC(=O)N/N=C(/OCC)C(C)(O)c1ccc(Cl)cc1		hypoxanthine uptake / radiometric		inhibition	Plasmodium falciparum	3D7	5 µM		75%

A second listing of 3 rows from above:

C[C@H]1CCCC(C[C@@H]2Cc3cc(O)cc(O)c3C(=O)O2)O1 ; method: SYBR Green ; read-out: EC50 ; agent: Plasmodium yoelii ; value: 0.04 µM
CCN(CC)CCCn1ccc(=Nc2ccc(-c3ccccc3)cc2)c2ccc(Cl)cc21 ; method: luciferase ; cell line: Huh7 ; read-out: EC50 ; agent: Plasmodium berghei ; value: >1 µM
Cc1ccc(N(C)C(=O)c2c[n+]3c(cn2)CN=C3c2ccc(C(F)(F)F)cc2)nn1 ; method: SYBR Green ; read-out: EC50 ; agent: Plasmodium yoelii ; value: >10 µM